Experimental data: PubChem BioAssay AID624099 (ICCB-Longwood, 2012)
Test: 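Host factors E2 relies on to silence an HPV18 LCR reporter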 (primary screen). System: human C33A cervical carcinoma cells (HPV-negative) stably expressing BPV1 E2 and an HPV18 LCR luciferase reporter. Reagents: siRNA pool against human genes, 40 nM. Time to read-out: 72 h. Measurement: 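Per-well luciferase luminescence, z-scored on each plate against the plate mean and SD with control wells left out, then averaged across three replicate plates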. Direction: mean z-score and z-score: higher = stronger reporter signal, weaker E2 silencing. Rule for the call: 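Mean z ≥ 2 together with z ≥ 2 in two or more of the three replicates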.
Here is one part, drawn at random, of about 21,000 deposited reagents. 497 of all reagents (2.4%) were called active. 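Higher z means weaker E2 silencing; only reporter increases were scored, and knock-downs that hurt cell survival may mask genuine repressor factors.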 Unmarked entries are inactive. Reagents against one gene are numbered here.

| gene | reagent no. | mean z-score | z-score, replicate A | z-score, replicate B | z-score, replicate C |
| --- | --- | --- | --- | --- | --- |
| HIC2 | 1 | 0.22 | 0.15 | 0.2 | 0.32 |
| PURA | 1 | -1.75 | -1.83 | -1.72 | -1.7 |
| NUP62CL | 1 | -0.31 | -0.15 | -0.45 | -0.33 |
| LOC401391 (retired record) | 1 | 0.31 | 0.28 | 0.54 | 0.12 |
| ZNF10 | 1 | -0.88 | -0.57 | -0.84 | -1.24 |
| BDNF | 1 | 0.04 | 0.02 | -0.03 | 0.13 |
| PFDN1 | 1 | 1.65 | 1.9 | 1.74 | 1.31 |
| PCGF3 | 1 | -1.33 | -1.39 | -1.18 | -1.4 |
| CENPM | 1 | 0.82 | 0.87 | 0.72 | 0.88 |
| TP63 | 1 | 1.1 | 1.5 | 0.69 | 1.1 |
| ATL1 | 1 | -0.19 | -0.14 | -0.2 | -0.25 |
| MBD2 | 1 | 0.24 | 0.4 | 0.41 | -0.09 |
| RPLP0 | 1 | -1.81 | -1.86 | -1.72 | -1.85 |
| TENM3-AS1 | 1 | -0.15 | -0.42 | 0.05 | -0.09 |
| DPP8 | 1 | 0.3 | 0.97 | 0.55 | -0.62 |
| NAA60 | 1 | -0.43 | -0.4 | -0.4 | -0.49 |
| MMRN1 | 1 | -0.88 | -0.91 | -0.69 | -1.04 |
| MEP1B | 1 | 0.45 | 0.68 | 0.33 | 0.36 |
| PIWIL4 | 1 | -0.19 | -0.01 | -0.37 | -0.18 |
| HOXD12 | 1 | 0.11 | 0.51 | 0.02 | -0.21 |
| PRUNE2 | 1 | -0.69 | -0.79 | -0.85 | -0.45 |
| PRUNE2 | 2 | -0.77 | -0.79 | -0.78 | -0.73 |
| PLPPR2 | 1 | -1.8 | -1.83 | -1.88 | -1.7 |
| MPPED2 | 1 | 1.03 | 0.81 | 1.37 | 0.91 |
| APOO | 1 | -1.59 | -1.61 | -1.59 | -1.58 |
| KCTD17 | 1 | 0.76 | 0.37 | 0.93 | 0.99 |
| RTL3 | 1 | 1.51 | 2.02 | 1.3 | 1.2 |
| KMT5C | 1 | -1.1 | -1.11 | -1.09 | -1.09 |
| SREBF1 | 1 | 0.71 | 0.66 | 1.07 | 0.4 |
| PCDHB16 | 1 | 0.52 | 0.89 | 0.8 | -0.12 |
| H2AC25 | 1 | -0.33 | -0.03 | -0.3 | -0.65 |

The list goes on, starting with the last 8 of the part before.
| gene | reagent no. | mean z-score | z-score, replicate A | z-score, replicate B | z-score, replicate C |
| --- | --- | --- | --- | --- | --- |
| MPPED2 | 1 | 1.03 | 0.81 | 1.37 | 0.91 |
| APOO | 1 | -1.59 | -1.61 | -1.59 | -1.58 |
| KCTD17 | 1 | 0.76 | 0.37 | 0.93 | 0.99 |
| RTL3 | 1 | 1.51 | 2.02 | 1.3 | 1.2 |
| KMT5C | 1 | -1.1 | -1.11 | -1.09 | -1.09 |
| SREBF1 | 1 | 0.71 | 0.66 | 1.07 | 0.4 |
| PCDHB16 | 1 | 0.52 | 0.89 | 0.8 | -0.12 |
| H2AC25 | 1 | -0.33 | -0.03 | -0.3 | -0.65 |
| IGFLR1 | 1 | 0.03 | -0.39 | 0.45 | 0.03 |
| LBX1 | 1 | 4.01 (active) | 4.23 | 3.77 | 4.03 |
| SEC14L4 | 1 | 0.56 | 0.54 | 0.51 | 0.63 |
| LACTB | 1 | 0.31 | 0 | 0.47 | 0.47 |
| KALRN | 1 | -1.85 | -1.61 | -1.61 | -2.33 |
| KALRN | 2 | 0.68 | 0.84 | 0.74 | 0.44 |
| BICRAL | 1 | -0.8 | -0.99 | -0.98 | -0.43 |
| LOC390880 (retired record) | 1 | 0.66 | 0.51 | 0.72 | 0.75 |
| CLEC10A | 1 | -0.7 | -0.36 | -0.78 | -0.95 |
| FGF21 | 1 | 0.54 | 0.74 | 0.53 | 0.35 |
| GRK4 | 1 | 1.35 | 1.7 | 1.31 | 1.03 |
| DOC2GP | 1 | 0.17 | 0.11 | 0.11 | 0.29 |
| DHX29 | 1 | -1.08 | -1.17 | -1.06 | -1 |
| LOC283117 (retired record) | 1 | -0.66 | -0.61 | -0.72 | -0.65 |
| TK2 | 1 | 1.3 | 1.33 | 1.27 | 1.28 |
| CXorf38 | 1 | -0.49 | -0.74 | -0.14 | -0.58 |
| SLC29A2 | 1 | -0.18 | -0.39 | -0.16 | 0.01 |
| PODNL1 | 1 | 3.66 (active) | 4.26 | 4.25 | 2.46 |
| MUSTN1 | 1 | 0.08 | -0.04 | 0.12 | 0.17 |
| MAP1B | 1 | 2.27 (active) | 2.13 | 2.43 | 2.26 |
| DENND3 | 1 | -1.33 | -1.2 | -1.43 | -1.37 |
| DRC4 | 1 | 1.73 | 1.72 | 1.78 | 1.68 |
| SETD5 | 1 | 3.25 (active) | 2.78 | 3.12 | 3.84 |
| LRRC8E | 1 | -0.68 | -0.7 | -0.77 | -0.58 |
| HS6ST1 | 1 | -0.2 | -0.12 | -0.13 | -0.35 |
| LINC02249 | 1 | 1.16 | 1.37 | 1.1 | 1.03 |
